From patent US20260382732A1, “HETEROMULTIVALENT POLYMERS AND ANTIVIRAL APPLICATIONS THEREOF” (published 2026)

Legend:
[1] = tested on: IAV strains; experiment: Hemagglutination inhibition (HAI) assay, all tested IAV strains
Method: (§1) The hemagglutination inhibition (HAI) assay was performed with different compounds using influenza A viruses A/X31 (H3N2), A/Panama/2007/1999 (H3N2), A/California/7/2009 (H1N1pdm) and A/Bayern/63/2009 (H1N1pdm). In the HAI assay is that IAV inhibitors will prevent the attachment of the virus to RBC. Therefore, hemagglutination is inhibited when inhibitors are present. Using different dilution of compounds, lowest inhibitory concentrations of compounds is evaluated. The Ki (HAI) reflects the lowest inhibitor concentration necessary to achieve full inhibition of virus-induced hemagglutination.
(§2) Inhibitors were fourfold serially diluted in PBS. Then, 4 HAU from A/X31 (H3N2), A/Panama/2007/2009 (H3N2), A/California/7/2009 (H1N1) or A/Bayern/63/2009 (H1N1) virus containing approximately 4×10^7 virus particles were added and gently mixed. After 15 min inculabtion at rt, 50 μl of a 1% chicken erythrocyte solution (preclinics GmbH) was added, gently mixed, and incubated for 30 min at rt. The inhibitor constant KiHAI, reflects the lowest inhibitor concentration, which is necessary to achieve full inhibition of virus induced hemagglutination. To check for full hemagglutination inhibition, the microtiter plate was tilted by 60° to cause droplet formation from red blood cell pellet.

[2] = tested on: HA; conditions: read-out: binding affinity Kd of monovalent SA to HA; cited from earlier work
[3] = tested on: A/X31 (H3N2); experiment: Hemagglutination inhibition (HAI) assay, A/X31 (H3N2); conditions: read-out: Ki(HAI) ± SD, lowest inhibitor concentration for full inhibition of virus-induced agglutination
Method: as §1
(§3) Inhibitors were fourfold serially diluted in PBS. Then, 4 HAU from A/X31 (H3N2), A/Panama/2007/2009 (H3N2), A/California/7/2009 (H1N1) or A/Bayern/63/2009 (H1N1) virus containing approximately 4×10^7 virus particles were added and gently mixed. After 15 min inculabtion at rt, 50 μl of a 1% chicken erythrocyte solution (preclinics GmbH) was added, gently mixed, and incubated for 30 min at rt. […]
(§4) Influenza A viruses A/X31 (H3N2) (reassortant with HA and NA segment of influenza strain A/Aichi/2/68 (H3N2) in the background of A/PuertoRico/8/1934 (H1N1)), A/Panama/2007/1999 (H3N2), A/PR/8/34 (H1N1) and A/Bayern/63/2009 pdm (H1N1) were grown in embryonated chicken eggs. […] Titers of virus stocks were determined by plaque titration. […]

[4] = tested on: A/Bayern/63/2009 (H1N1); experiment: Hemagglutination inhibition (HAI) assay, A/Bayern/63/2009 (H1N1); conditions: read-out: Ki(HAI) ± SD, lowest inhibitor concentration for full inhibition of virus-induced agglutination
Method: as §1, §3, §4

[5] = tested on: A/Panama/2007/2009 (H3N2); experiment: Hemagglutination inhibition (HAI) assay, A/Panama/2007/2009 (H3N2); conditions: read-out: Ki(HAI) ± SD, lowest inhibitor concentration for full inhibition of virus-induced agglutination
Method: as §1, §3, §4

[6] = tested on: IAV virus strains; experiment: Inhibition of virus propagation, multicyclic infection of MDCK II cells, tested strains together; conditions: MOI 0.01, 24 h
Method: The therapeutic activity against virus propagation was analyzed in a multicyclic infection setup with the A/X31 (H3N2), A/Panama/2007/2009 (H3N2) and A/Bayern/63/2009 (H1N1pdm) subtypes.
Madin-Darby Canine Kidney (MDCK II) cells were washed with PBS and subsequently infected with the indicated virus at multiplicity of infection (MOI) 0.01 for 1 h. Input virus was removed, and unbound virus washed off with PBS. Cells were then incubated with infection medium (MEM supplemented with 0.2% BSA, 2 mM L-glutamine, […] streptomycin and 100 units/mL penicillin and 2.5 mg/mL TPCK-treated trypsin) containing the indicated compound at the indicated concentration. After 24 h, virus titers in the supernatants were determined by plaque assay as described before (M. Matrosovich et al. Virol J 2006, 3, 63.)
IC50 values were calculated by fitting the data from the curves obtained by plotting the different concentrations of each compound (for each compound and each concentration data from three independent experiments were determined in duplicates), using a 4th-order non-linear regression fit in Graphpad Prism.
MDCK II cells were washed with PBS and subsequently infected with the indicated virus at MOI 0.01 for 45 minutes. Input virus was removed, and unbound virus washed off with PBS. […] After 24 h, virus titers in the supernatants were determined by plaque assay as described before.^[3] […]

[7] = tested on: A/California/7/2009 (H1N1); experiment: Hemagglutination inhibition (HAI) assay, A/California/7/2009 (H1N1); conditions: read-out: Ki(HAI) ± SD, lowest inhibitor concentration for full inhibition of virus-induced agglutination
Method: as §1, §2

Compound	HA inhibition (hemagglutination inhibition), in words [1]	Kd [2]	Ki [3]	Ki [4]	Ki [5]	inhibition of virus propagation, in words [6]	Ki [7]
CC(=O)N[C@H]1C([C@H](O)[C@H](O)CO)O[C@@](OCC2O[C@@H](O[C@@H]3C(CO)OC(O)C(O)[C@H]3O)C(O)[C@@H](O)[C@H]2O)(C(=O)[O-])C[C@H]1O.[Na+] (some centres unmarked)	No HA inhibition						
sialic acid		2000 to 4000 µM					
CC(=O)N[C@H]1[C@H]([C@H](O)[C@H](O)CO)OC(C(=O)O)=C[C@@H]1N=C(N)N	No HA inhibition		> 160 µM	> 160 µM	> 160 µM	some activity against one or more of the tested strains	> 160 µM
